Source: publication PMC4727337, “A Fluorescent Oligothiophene-Bis-Triazine ligand interacts with PrP fibrils and detects SDS-resistant oligomers in human prion diseases” (2016)

Biological target: PrP^Sc of 22 L-infected mouse brain homogenate (mouse (endogenous in brain)) (UniProt P04925)

PrP^Sc of 22 L-infected mouse brain homogenate (from UniProt P04925 23-230)
stoichiometry N: 2 and 3

“And” between values parts separate entries of the source, which are not always exact repeats. Identical values can stand only once.
